Here are results for 16 compounds from article PMC12067436, “Toward Dual-Target Glycomimetics against Two Bacterial Lectins to Fight Pseudomonas aeruginosa–Burkholderia cenocepacia Infections: A Biophysical Study” (2025).

Protein sequences, listed by entry. Tags and fused reporters are not part of them. Residues count along the entry.
UniProt Q9HYN5, 2-115 limits assumed: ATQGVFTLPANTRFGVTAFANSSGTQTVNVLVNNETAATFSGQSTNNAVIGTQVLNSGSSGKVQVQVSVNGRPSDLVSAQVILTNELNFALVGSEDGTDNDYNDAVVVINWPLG
UniProt B4EH86, 1-132 limits assumed: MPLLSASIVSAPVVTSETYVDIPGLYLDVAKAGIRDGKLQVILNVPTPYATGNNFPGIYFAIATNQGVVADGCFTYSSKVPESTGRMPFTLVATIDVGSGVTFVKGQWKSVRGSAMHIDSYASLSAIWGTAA

Values joined by “and” are separate entries in the source; they are usually repeats but may differ in a detail not shown here. Identical values can stand only once. Like-named read-outs stand apart in the source and are kept apart here.

For assay [1], the target named is T1, LecB from PAO1 (Pseudomonas aeruginosa, UniProt Q9HYN5). In words: LecB competitive binding assay using fluorescence polarization. The note with it: read-out: LecB IC50, LecB from strain PAO1.
Assay [2] has as its target T1, LecB from PAO1. The note with it: read-out: LecB IC50, LecB from strain PAO1, cited from earlier work.
Assay [3] concerns the target T2, BC2L-C-Nt (Burkholderia cenocepacia, UniProt B4EH86). The note with it: cited from earlier work.
The target in assay [4] is T2, BC2L-C-Nt. The note with it: read-out: BC2L-C-Nt IC50; SPR competition assay on a fucose chip; cited from earlier work.
Assay [5] has as its system P. aeruginosa biofilm formation. The note with it: in vitro; cited from earlier work.
Assay [6] relates to BC2L-A. The note with it: read-out: BC2L-A KD (ITC); cited from earlier work.
Assay [7] concerns the target T2, BC2L-C-Nt. In words: ITC affinity for BC2L-C-Nt.
[8] abbreviates: read-out: BC2L-C-Nt KD (ITC), ref Bermeo et al.[33].
Setting [9] is: read-out: BC2L-C-Nt KD (ITC), ref Mazzotta et al.[32].

As a reminder, the IC50 is the point on the concentration scale where inhibition reaches its midpoint. For `CC(=O)NCc1cccc(-c2ccc(C(=O)N[C@H]3O[C@@H](C)[C@@H](O)[C@@H](O)[C@@H]3O)o2)c1`, in assay [1], the IC50 is 0.65 µM. Consider `C[C@@H]1O[C@H](CNS(=O)(=O)c2ccc(C#CC(C)(C)O)s2)[C@@H](O)[C@H](O)[C@@H]1O`, for which, in assay [2] (ref Sommer et al.[37]), the IC50 is 3.14 µM.

What is called Kd is the constant that tells how readily two partners part at equilibrium. As to `CNCc1ccc(C(=O)N[C@H]2O[C@@H](C)[C@@H](O)[C@@H](O)[C@@H]2O)cc1`, the IC50 in assay [1] was 0.23 µM. Moreover, in assay [3] (setting [8]), the Kd was greater than 2000 µM. As to `C[C@@H]1O[C@H](NC(=O)c2ccc(C(C)(C)CN)cc2)[C@@H](O)[C@H](O)[C@@H]1O`, the IC50 in assay [1] came out at 4.24 µM. Further, the Kd in assay [3] (setting [8]) is greater than 2000 µM. Regarding H-type 1 trisaccharide, in assay [3] (read-out: BC2L-C-Nt KD (ITC)), the Kd was 25 µM. As to `C[C@@H]1O[C@H](CNC(=O)c2cc3ccccc3[nH]2)[C@@H](O)[C@H](O)[C@@H]1O`, in assay [2] (ref Sommer et al.[36]), the IC50 was 7.93 µM.

Turning to `C[C@@H]1O[C@H](NC(=O)c2ccc3[nH]ccc3c2)[C@@H](O)[C@H](O)[C@@H]1O`, the IC50 in assay [1] was 0.09 µM. As for `C[C@@H]1O[C@H](NC(=O)c2ccc(-c3cccc(CN)c3)o2)[C@@H](O)[C@H](O)[C@@H]1O`, the IC50 in assay [1] is 0.35 µM; in assay [4], 103 µM. For the same compound, in assay [3] (setting [9]), the Kd is 159 µM. As to `C[C@@H]1O[C@H](NC(=O)c2ccc(-c3ccccc3)cc2)[C@@H](O)[C@H](O)[C@@H]1O`, the IC50 in assay [1] was determined as 0.14 µM. On to `C[C@@H]1O[C@H](NC(=O)C2CCCN2)[C@@H](O)[C@H](O)[C@@H]1O` (stereo partly drawn), for which the IC50 in assay [1] was 1.11 µM. For the compound `CO[C@@H]1O[C@@H](C)[C@@H](O)[C@@H](O)[C@@H]1O`, the “inhibition of P. aeruginosa biofilm formation” value in assay [5] is “failed”. For the same compound, the Kd in assay [3] (setting [9]) and in assay [3] (read-out: BC2L-C-Nt KD (ITC)) was 2700 µM in each case. As to `C[C@@H]1O[C@H](CNS(=O)(=O)c2ccc(C#Cc3ccccc3)s2)[C@@H](O)[C@H](O)[C@@H]1O`, in assay [2] (ref Sommer et al.[37]), the IC50 is 1.52 µM.

Turning to `OC[C@H]1OC(O)[C@@H](O)[C@@H](O)[C@@H]1O` (stereo partly drawn), in assay [6], the Kd was 2.8 µM. For the compound `C[C@@H]1O[C@H](NC(=O)c2ccc(CN)cc2)[C@@H](O)[C@H](O)[C@@H]1O`, in assay [1], the IC50 was 0.28 µM and 0.17 µM. For `C[C@@H]1O[C@H](NC(=O)c2cccc(CN)c2)[C@@H](O)[C@H](O)[C@@H]1O`, in assay [1], the IC50 was 0.28 µM. As for `C[C@@H]1O[C@H](NC(=O)c2ccc3cc[nH]c3c2)[C@@H](O)[C@H](O)[C@@H]1O`, the “affinity for BC2L-C-Nt, fold weaker than regioisomer 9” value in assay [7] amounted to 5 fold. Also, the IC50 in assay [1] turned out to be 0.05 µM. The Kd in assay [3] (setting [8]) is greater than 2000 µM.
